Values from PubChem BioAssay AID624099 (ICCB-Longwood, 2012).
Aim: 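Knock-downs relieving repression by E2 of an HPV18 LCR luciferase reporter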 (primary screen). Cells: human C33A cervical carcinoma cells (HPV-negative) stably expressing BPV1 E2 and an HPV18 LCR luciferase reporter. Reagents: siRNA pool against human genes, 40 nM. Time to read-out: 72 h. Detection: 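HPV18 LCR reporter light per well, converted to plate-wise z-scores that exclude control wells, and averaged over triplicate plates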. Scale: mean z-score and z-score: higher = stronger reporter signal, weaker E2 silencing. Call rule: 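Hit if mean z-score reaches 2 and two or more of three replicate z-scores also reach 2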.
This is a random part of about 21,000 reagents tested. 497 of them (2.4%) were called active. 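Higher z means weaker E2 silencing; only reporter increases were scored, and knock-downs that hurt cell survival may mask genuine repressor factors.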 Reagents against one gene are numbered here.

| gene knocked down | reagent no. | mean z-score | z-score, replicate A | z-score, replicate B | z-score, replicate C | activity call |
| --- | --- | --- | --- | --- | --- | --- |
| CDC42EP2 (CDC42 effector protein 2) | 1 | -0.38 | -0.14 | -0.6 | -0.41 | inactive |
| TMEM156 (transmembrane protein 156) | 1 | -1 | -2.04 | -0.92 | -0.03 | inactive |
| PHACTR1 (phosphatase and actin regulator 1) | 1 | -1.68 | -1.75 | -1.67 | -1.63 | inactive |
| OTOG (otogelin) | 1 | -0.14 | -0.06 | -0.1 | -0.25 | inactive |
| SOX2 (SRY-box transcription factor 2) | 1 | 2.57 | 2.73 | 2.69 | 2.28 | active |
| FAM215A (family with sequence similarity 215 member A) | 1 | -0.3 | -0.23 | -0.12 | -0.53 | inactive |
| SULT2B1 (sulfotransferase family 2B member 1) | 1 | 0.41 | 0.3 | 0.56 | 0.37 | inactive |
| LOC388526 (retired record) | 1 | 1.7 | 1.85 | 1.75 | 1.49 | inactive |
| VPS33B (VPS33B late endosome and lysosome associated) | 1 | 0.46 | 0.69 | 0.26 | 0.44 | inactive |
| HELLS (helicase, lymphoid specific) | 1 | -1.28 | -1.29 | -1.5 | -1.06 | inactive |
| NAA38 (N-alpha-acetyltransferase 38, NatC auxiliary subunit) | 1 | -0.12 | -0.1 | 0.08 | -0.35 | inactive |
| SMNDC1 (survival motor neuron domain containing 1) | 1 | 0.3 | 0.43 | 0.22 | 0.26 | inactive |
| GTF2I (general transcription factor IIi) | 1 | -2.25 | -1.96 | -2.49 | -2.31 | inactive |
| OPTC (opticin) | 1 | -0.4 | -0.26 | -0.5 | -0.43 | inactive |
| HR (HR lysine demethylase and nuclear receptor corepressor) | 1 | 0.9 | 1.21 | 0.67 | 0.83 | inactive |
| ABAT (4-aminobutyrate aminotransferase) | 1 | 0.44 | 0.69 | 0.19 | 0.44 | inactive |
| ZNF345 (zinc finger protein 345) | 1 | 0.48 | 0.74 | 0.27 | 0.43 | inactive |
| LOC401256 (retired record) | 1 | -1.62 | -2 | -1.44 | -1.42 | inactive |
| OR4A15 (olfactory receptor family 4 subfamily A member 15) | 1 | -0.24 | -0.39 | 0.23 | -0.57 | inactive |
| H2AB3 (H2A.B variant histone 3) | 1 | 2.45 | 2.83 | 1.96 | 2.57 | active |
| TMEM132C (transmembrane protein 132C) | 1 | -1.21 | -1.01 | -1.72 | -0.91 | inactive |
| HAPSTR2 (HUWE1 associated protein modifying stress responses 2) | 1 | -0.17 | -0.61 | 0.02 | 0.09 | inactive |
| MFRP (membrane frizzled-related protein) | 1 | 0.42 | 0.56 | 0.2 | 0.51 | inactive |
| SLC39A3 | 1 | -0.76 | -0.9 | -0.6 | -0.77 | inactive |
| LOC402281 (retired record) | 1 | -0.92 | -0.7 | -0.79 | -1.26 | inactive |
| ARL6IP4 (ARF like GTPase 6 interacting protein 4) | 1 | 0.43 | 0.44 | 0.29 | 0.56 | inactive |
| PNMA8B (PNMA family member 8B) | 1 | -1.67 | -1.9 | -1.47 | -1.65 | inactive |
| ADISSP (adipose secreted signaling protein) | 1 | 1.67 | 1.48 | 1.91 | 1.61 | inactive |
| RIPK2 (receptor interacting serine/threonine kinase 2) | 1 | 0.06 | 0.08 | 0.08 | 0.01 | inactive |

Limited to “mean z-score” (9 entries from above):
HR (HR lysine demethylase and nuclear receptor corepressor)	0.9
ABAT (4-aminobutyrate aminotransferase)	0.44
ZNF345 (zinc finger protein 345)	0.48
LOC401256 (retired record)	-1.62
OR4A15 (olfactory receptor family 4 subfamily A member 15)	-0.24
H2AB3 (H2A.B variant histone 3)	2.45
TMEM132C (transmembrane protein 132C)	-1.21
HAPSTR2 (HUWE1 associated protein modifying stress responses 2)	-0.17
MFRP (membrane frizzled-related protein)	0.42

Further results follow.
| gene knocked down | reagent no. | mean z-score | z-score, replicate A | z-score, replicate B | z-score, replicate C | activity call |
| --- | --- | --- | --- | --- | --- | --- |
| DPH5 (diphthamide biosynthesis 5) | 1 | -0.26 | -0.22 | -0.34 | -0.21 | inactive |
| LOC390349 (retired record) | 1 | -0.72 | -0.29 | -0.56 | -1.29 | inactive |
| PLPBP (pyridoxal phosphate binding protein) | 1 | -0.88 | -0.88 | -0.95 | -0.8 | inactive |
| LINC00243 (long independently transcribed non-coding RNA 243) | 1 | 0.06 | 0.67 | -0.29 | -0.19 | inactive |
| DEFB119 (defensin beta 119) | 1 | 0.29 | 0.51 | -0.11 | 0.46 | inactive |
| ADGRG3 (adhesion G protein-coupled receptor G3) | 1 | 1 | 1.08 | 1.07 | 0.84 | inactive |
| PPA1 (inorganic pyrophosphatase 1) | 1 | 0.07 | -0.08 | 0.03 | 0.25 | inactive |
| KCNA7 (potassium voltage-gated channel subfamily A member 7) | 1 | -0.75 | -0.55 | -0.82 | -0.89 | inactive |
| UNC80 (unc-80 subunit of NALCN channel complex) | 1 | -1.75 | -1.69 | -1.94 | -1.62 | inactive |
| UNC80 (unc-80 subunit of NALCN channel complex) | 2 | 0.17 | 0.13 | 0.19 | 0.2 | inactive |
| CD38 (CD38 molecule) | 1 | 0.22 | -0.26 | 0.42 | 0.51 | inactive |
| ADAMTSL5 (ADAMTS like 5) | 1 | 0.97 | 1.04 | 0.79 | 1.08 | inactive |
| NMI (N-myc and STAT interactor) | 1 | -0.05 | 0.23 | -0.04 | -0.34 | inactive |
| PRM3 (protamine 3) | 1 | -0.71 | -1.35 | -0.78 | -0.02 | inactive |
| DHX37 (DEAH-box helicase 37) | 1 | -0.99 | -1.1 | -1.23 | -0.65 | inactive |
| ANAPC15 (anaphase promoting complex subunit 15) | 1 | 0.09 | 0.16 | 0.12 | -0.01 | inactive |
| CCR5 (C-C motif chemokine receptor 5) | 1 | 4.79 | 5.11 | 4.8 | 4.46 | active |
| SERTAD4BP (SERTA domain containing 4B, pseudogene) | 1 | -0.4 | -0.26 | -0.54 | -0.4 | inactive |
| GOLGA3 (golgin A3) | 1 | 0.11 | 0.32 | -0.17 | 0.18 | inactive |
| WASH2P (WASP family homolog 2, pseudogene) | 1 | -0.5 | -0.37 | -0.61 | -0.53 | inactive |
| WIPF1 (WAS/WASL interacting protein family member 1) | 1 | 1.25 | 0.58 | 1.32 | 1.85 | inactive |
| RAB8B (RAB8B, member RAS oncogene family) | 1 | -0.31 | -0.08 | -0.39 | -0.45 | inactive |
| HEPACAM2 (HEPACAM family member 2) | 1 | -0.08 | -0.27 | 0.39 | -0.36 | inactive |
| LOC342460 (retired record) | 1 | -0.74 | -0.66 | -0.78 | -0.78 | inactive |
| PI4KA (phosphatidylinositol 4-kinase alpha) | 1 | -0.32 | -0.82 | 0.05 | -0.2 | inactive |
| CRISP1 (cysteine rich secretory protein 1) | 1 | -0.15 | -0.17 | -0.19 | -0.09 | inactive |
| PRSS21 (serine protease 21) | 1 | 0.53 | 0.44 | 0.32 | 0.82 | inactive |
| UQCRFS1 | 1 | -0.13 | 0.23 | -0.35 | -0.29 | inactive |
